Pooled drug test results. Numbers come from NIAID ChemDB, via PubChem.

All rows: tests in culture; species: HIV-1

ECn: concentration that inhibits the pathogen or its effect by n%. Blank or dashed fields: not listed here. Conditions beyond the fields shown may differ between rows.

structure	changes	cell line	strain or isolate	read by	endpoint	setting	value
CC(C)C1=C2[C@H]3CC[C@@H]4[C@@]5(C)CC[C@H](OC(=O)CC(C)(C)C(=O)O)C(C)(C)[C@@H]5CC[C@@]4(C)[C@]3(C)CC[C@@]2(NC(=O)c2ccc[nH]c2=O)CC1=O	-	MT-2	IIIB	RT activity	EC50	30% human serum	<0.199 µM
Cc1nc2ccccc2c(-c2cc(F)c3c(c2C)CCCO3)c1[C@H](OC(C)(C)C)C(=O)O	A129T	MT-4	NL4-3	luminescence	EC50	-	5.74 µM
CC1=C(C(=O)Nc2cc(C(=O)OC(C)C)c(F)cc2F)SCCO1	RT-E138K	CEM	TSAO-resistant (RT E138K)	syncytia	EC50	-	>10 µg/mL
Cc1ccc(-c2ccc3c(c2)C=C(C(=O)Nc2ccc(C[N+](C)(C)C4CCOCC4)cc2)CCC3)cc1	-	PBMC	TB10 CLADE C	p24	EC50	-	<1 µM
CC(C)n1c(=O)c(O)c2n(c1=O)C(CCN(C)C(=O)c1ccccc1)CN(Cc1ccc(F)cc1)C2=O	-	MT-4	-	p24	EC95	-	<10 µM
CCSC(=O)C1=C(CC)NC(=O)NC1c1cccc(O)c1	-	CEM	-	p24 / ELISA	EC50	-	>5 µM
CC(C)C1=C2C3CCC4[C@@]5(C)CC[C@H](OC(=O)CC(C)(C)C(=O)O)C(C)(C)C5CC[C@@]4(C)[C@]3(C)CC[C@@]2(NC(=O)OCC2(N)CC2)CC1=O	-	MT-2	IIIB	RT activity	EC50	30% human serum	<0.199 µM
O=C(O)c1cc(-n2cccc2)ccc1Cl	-	PBMC + MT-2	92US657 R5 CLADE B	p24	EC90	-	133 µM
CC(C)CN(C[C@@H](O)[C@H](Cc1ccccc1)NC(=O)O[C@H]1CCOC1)S(=O)(=O)c1cccnc1	-	CEM	IIIB	p24	EC50	-	<1 µM
CC1=C(C(=O)Nc2ccc(C)c(C(=O)OC(C)C)c2)SCCO1	RT-Y181C	CEM	PYR-resistant (RT Y181C)	syncytia	EC50	-	6 µg/mL
O=C(C(=O)N1CCN(C(=O)c2ccn[nH]2)CC1)c1c[nH]c2cccc(F)c12	-	HeLa + HELA CD4+/CCR5	-	luciferase	EC50	-	<10 µM
CCCc1cc(=O)oc2c3c(c4c(c12)OC(C)(C)CC4)O[C@@H](C)[C@H](C)[C@@H]3O	RT-L74V	CEM + CEM-SS	NL4-3	cytopathic effect / XTT	EC50	-	0.6 µM
Cc1ccc(F)c2c(C(=O)C(=O)N3CCN(C(=O)c4ccccc4)C[C@H]3C)c[nH]c12	-	HeLa + HELA CD4+/CCR5	-	luciferase	EC50	-	<10 µM
CC1=C(C(=O)Nc2cc(Cl)cc(C(=O)OC(C)C)c2)SCCO1	RT-V106A	CEM	Nevirapine-resistant (RT V106A)	syncytia	EC50	-	5 µg/mL
C[C@H]1CN(C(=O)c2ccccc2)CCN1C(=O)C(=O)c1c[nH]c2c(F)c(F)c(F)c(F)c12	-	HeLa + HELA CD4+/CCR5	-	luciferase	EC50	-	<10 µM
Nc1nc(=O)n([C@H]2C=C[C@@H](CO)O2)cc1F	RT-M41L D67N K70R T215Y K219Q	MT-4	XM-AZT-resistant	p24	EC50	-	<1.6 µM
C=CCOC(=O)N[C@@H](Cc1ccccc1)[C@H](O)CN(CC(C)C)S(=O)(=O)c1ccc(F)c(NC(C)=O)c1	-	CEM	IIIB	p24	EC50	-	<10 µM
CC(C)C1=C2C3CCC4[C@@]5(C)CC[C@H](OC(=O)CC(C)(C)C(=O)O)C(C)(C)C5CC[C@@]4(C)[C@]3(C)CC[C@@]2(NC(=O)N2CCC(F)(F)C2)CC1=O	-	MT-2	IIIB	RT activity	EC50	30% human serum	<0.199 µM
CC1=C(C(=O)Nc2cc(C(=O)OC(C)C)c(Cl)cc2F)SCCO1	RT-E138K	CEM	TSAO-resistant (RT E138K)	syncytia	EC50	-	>10 µg/mL
Cc1ccc(C(=O)N[C@@]23CC[C@]4(C)[C@H](CC[C@@H]5[C@@]6(C)CC[C@H](OC(=O)CC(C)(C)C(=O)O)C(C)(C)[C@@H]6CC[C@]54C)C2=C(C(C)C)C(=O)C3)cc1	-	MT-2	IIIB	RT activity	EC50	30% human serum	<0.199 µM
O=C1c2c(O)c(=O)n(C3CCCCC3N3CCOCC3)c(=O)n2CCN1Cc1ccc(F)cc1	-	MT-4	-	p24	EC50	-	<10 µM
CC1CN(C(=O)C(=O)c2c[nH]c3cccc(F)c23)CCN1C(=O)c1ccccc1	-	HeLa + HELA CD4+/CCR5	-	luciferase	EC50	-	<10 µM
Cc1nc2c(c(C)c(C)n2CCN2CCCC2=O)c(-c2ccc(Cl)cc2)c1[C@H](OC(C)(C)C)C(=O)O	-	MT-4	IIIB	MTT	EC50	-	0.0253 µM
CC(C)n1c(=O)c(O)c2n(c1=O)C(CCn1ccnc1)CN(Cc1ccc(F)cc1)C2=O	-	MT-4	-	p24	EC95	-	<10 µM
CC(C)C1=C2C3CCC4[C@@]5(C)CC[C@H](OC(=O)CC(C)(C)C(=O)O)C(C)(C)C5CC[C@@]4(C)[C@]3(C)CC[C@@]2(NC(=O)NC(C)(C)c2ccccn2)CC1=O	-	MT-2	IIIB	RT activity	EC50	30% human serum	<0.199 µM
CCC1=C(C2=NC[C@H](C3CCCCC3)O2)[C@H](c2cccc(O)c2)NC(=O)N1	-	CEM	-	p24 / ELISA	EC50	-	≤1 µM
COCc1nc(Nc2ccc(C#N)cc2)nc(Nc2c(C)cc(/C=C/C#N)cc2C)c1C(=O)N1CCN(C)CC1	-	MT4 CMV-EGFP	K103N + Y181C	-	EC50	-	1.82 µM
CC1(C)CC=C(c2cn(-c3nccc(C(=O)NC4CCC(N5CC6CCC(C5)O6)CC4)n3)c3ccc(F)c([C@H](OC(C)(C)C)C(=O)O)c23)CC1	L102F	MT-4	NL4-3	luminescence	EC50	-	0.502 µM
Cc1nc2c(c(C)c(C)n2Cc2ccc(F)nc2)c(-c2ccc(Cl)cc2)c1[C@H](OC(C)(C)C)C(=O)O	-	MT-4	IIIB	MTT	EC50	-	0.00765 µM
COCc1nc(Nc2ccc(C#N)cc2)nc(Nc2c(C)cc(/C=C/C#N)cc2C)c1C(=O)NCc1ccncc1	-	MT4 CMV-EGFP	MDR	-	EC50	-	0.0501 µM
COCCOC(=O)c1cc(NC(=O)C2=C(C)OCCS2)ccc1Cl	RT-Y181C	CEM	PYR-resistant (RT Y181C)	syncytia	EC50	-	>10 µg/mL
CCC(=O)C1=C(COC2CCCCC2)NC(=O)NC1c1ccc(O)c(Cl)c1	-	CEM	-	p24 / ELISA	EC50	-	>5 µM
CC(C)(C)c1ccc(C(=O)N2CCN(C(=O)C(=O)c3c[nH]c4ccccc34)CC2)cc1	-	MT-2	BRU	RT activity	EC50	-	~10 µM
Cc1nc2c(c(C)c(C)n2Cc2ccccc2)c(-c2ccc(Cl)cc2)c1C(OC(C)(C)C)C(=O)O	-	MT-4	IIIB	MTT	EC50	-	0.692 µM
CC(C)C1=C2C3CCC4[C@@]5(C)CC[C@H](OC(=O)CC(C)(C)C(=O)O)C(C)(C)C5CC[C@@]4(C)[C@]3(C)CC[C@@]2(NC(=O)OCC2CCCCC2)CC1=O	-	MT-2	IIIB	RT activity	EC50	30% human serum	<0.199 µM
Cc1nc2c(c(C)c(C)n2CC2C(=O)c3ccccc3C2=O)c(-c2ccc(Cl)cc2)c1C(OC(C)(C)C)C(=O)O	-	MT-4	IIIB	MTT	EC50	-	5.51 µM
O=C(C(=O)N1CCN(C(=O)c2ccc(C(F)(F)F)o2)CC1)c1c[nH]c2c(F)ccc(F)c12	-	HeLa + HELA CD4+/CCR5	-	luciferase	EC50	-	<10 µM
Cc1nc2c(c(C)c(C)n2Cc2cn[nH]c2)c(-c2ccc(Cl)cc2)c1[C@H](OC(C)(C)C)C(=O)O	-	MT-4	IIIB	MTT	EC50	-	0.0249 µM
CC(C)n1c(=O)c(O)c2n(c1=O)C(CCOCc1ccccc1)CN(Cc1ccc(F)cc1)C2=O	-	MT-4	-	p24	EC50	-	<10 µM
CC(C)CN(C[C@@H](O)[C@H](Cc1ccccc1)NC(=O)OCc1ccccn1)S(=O)(=O)c1ccc(F)c(F)c1	-	CEM	IIIB	p24	EC50	-	<10 µM
Nc1ccn([C@H]2CC[C@@H](CO)O2)c(=O)n1	A96D	-	NL4-3	β-galactosidase	EC50	-	0.255 µM
COc1ccc(S(=O)(=O)N(CC2CCCC2)C[C@@H](O)[C@H](Cc2ccccc2)NC(=O)O[C@@H]2CCOC2)cc1	-	CEM	IIIB	p24	EC90	-	≤0.1 µM
CCC1=C(C(=O)OCC2CCCCC2)C(c2cccc([NH3+])c2)NC(=O)N1	-	CEM	-	p24 / ELISA	EC50	-	≤1 µM
CN1N=C(N)c2cn([C@@H]3O[C@H](COP(=O)(O)O)[C@@H](O)[C@H]3O)c3ncnc1c23	-	CEM + CEM-SS	214	cytopathic effect / XTT	EC50	-	0.08 µM
COCCNC(=O)c1c(COC)nc(Nc2ccc(C#N)cc2)nc1Oc1c(C)cc(/C=C/C#N)cc1C	-	MT4 CMV-EGFP	L1001+K103N	-	EC50	-	0.0813 µM
O=C(N[C@@H](Cc1ccccc1)[C@H](O)CN(CC1CCCC1)S(=O)(=O)c1ccc(OC(F)(F)F)cc1)O[C@H]1CCOC1	-	CEM	IIIB	p24	EC50	-	<10 µM
CC(C)C1=C2[C@H]3CC[C@@H]4[C@@]5(C)CC[C@H](OC(=O)CC(C)(C)C(=O)O)C(C)(C)[C@@H]5CC[C@@]4(C)[C@]3(C)CC[C@@]2(NC(=O)C2CCN(C(=O)OC(C)(C)C)CC2)CC1=O	-	MT-2	IIIB	RT activity	EC50	30% human serum	<0.199 µM
CC(C)CN(C[C@@H](O)[C@H](Cc1ccccc1)NC(=O)OC1CCOC1)S(=O)(=O)c1ccc(Cl)cc1	-	CEM	IIIB	p24	EC50	-	<1 µM
Nc1nc(NC2CC2)c2ncn([C@H]3C=C[C@@H](CO)C3)c2n1	RT-K65R L74V M184V Y115F	MT-4	XM-ABC-resistant	p24	EC90	-	100 µM
COCc1nc(Nc2ccc(C#N)cc2)nc(Nc2c(C)cc(/C=C/C#N)cc2C)c1C(=O)N1CCCC(C(N)=O)C1	-	MT4 CMV-EGFP	K103N + Y181C	-	EC50	-	0.501 µM
CCCC1=C(C(=O)OCC2CCCCC2)C(c2cccc(O)c2)NC(=O)N1	-	CEM	-	p24 / ELISA	EC50	-	≤1 µM
CCCOC(=O)c1ccc(C)c(NC(=O)C2=C(C)OCCS2)c1	RT-V106A	CEM	Nevirapine-resistant (RT V106A)	syncytia	EC50	-	>10 µg/mL
COCc1nc(Nc2ccc(C#N)cc2)nc(Nc2c(C)cc(/C=C/C#N)cc2C)c1C(=O)N1CCN(CCO)CC1	-	MT4 CMV-EGFP	K103N + Y181C	-	EC50	-	0.372 µM
CCC1=C(C(=O)OCC2CCCCC2)C(c2cc([N+](=O)[O-])ccc2F)NC(=O)N1	-	CEM	-	p24 / ELISA	EC50	-	>5 µM
COCc1nc(Nc2ccc(C#N)cc2)nc(Oc2c(C)cc(/C=C/C#N)cc2C)c1C(=O)NCc1ccncc1	-	MT4 CMV-EGFP	IIIB	-	EC50	-	0.00398 µM
CC(C)CN(C[C@@H](O)[C@H](Cc1ccccc1)NC(=O)OCc1cccnc1)S(=O)(=O)c1ccc(F)cc1	-	CEM	IIIB	p24	EC50	-	<1 µM
CC1=C(C(=O)Nc2ccc(F)c(C(=O)OC(C)C)c2)SCCO1	RT-L100I	CEM	TIBO-resistant (RT L100I)	syncytia	EC50	-	>10 µg/mL
CCC1=C(C(=O)CC2CCC(OC)CC2)C(c2ccc(O)c(Cl)c2)NC(=O)N1	-	CEM	-	p24 / ELISA	EC50	-	>5 µM
CC1=C(C(=O)Nc2ccc(Cl)c(C(=O)OC3CCCCC3)c2)SCCO1	RT-E138K	CEM	TSAO-resistant (RT E138K)	syncytia	EC50	-	3.5 µg/mL
COC(=O)c1cccc2[nH]cc(C(=O)C(=O)N3CCN(C(=O)c4ccccc4)CC3CO)c12	-	HeLa + HELA CD4+/CCR5	-	luciferase	EC50	-	<10 µM
CC1=C(C(=O)N(C)c2ccc(Cl)c(C(=O)OC(C)C)c2)SCCO1	RT-Y181C	CEM	PYR-resistant (RT Y181C)	syncytia	EC50	-	>10 µg/mL
COCc1nc(Nc2ccc(C#N)cc2)nc(Nc2c(C)cc(/C=C/C#N)cc2C)c1C(=O)NCCc1ccccn1	-	MT4 CMV-EGFP	IIIB	-	EC50	-	0.00282 µM

A second listing of 6 rows from above:

| structure | changes | cell line | strain or isolate | read by | endpoint | setting | value |
|---|---|---|---|---|---|---|---|
| CC1=C(C(=O)Nc2ccc(Cl)c(C(=O)OC3CCCCC3)c2)SCCO1 | RT-E138K | CEM | TSAO-resistant (RT E138K) | syncytia | EC50 | - | 3.5 µg/mL |
| Cc1nc2c(c(C)c(C)n2CCN2CCCC2=O)c(-c2ccc(Cl)cc2)c1[C@H](OC(C)(C)C)C(=O)O | - | MT-4 | IIIB | MTT | EC50 | - | 0.0253 µM |
| CC1(C)CC=C(c2cn(-c3nccc(C(=O)NC4CCC(N5CC6CCC(C5)O6)CC4)n3)c3ccc(F)c([C@H](OC(C)(C)C)C(=O)O)c23)CC1 | L102F | MT-4 | NL4-3 | luminescence | EC50 | - | 0.502 µM |
| CC1=C(C(=O)Nc2ccc(C)c(C(=O)OC(C)C)c2)SCCO1 | RT-Y181C | CEM | PYR-resistant (RT Y181C) | syncytia | EC50 | - | 6 µg/mL |
| CC1=C(C(=O)Nc2ccc(F)c(C(=O)OC(C)C)c2)SCCO1 | RT-L100I | CEM | TIBO-resistant (RT L100I) | syncytia | EC50 | - | >10 µg/mL |
| COCc1nc(Nc2ccc(C#N)cc2)nc(Nc2c(C)cc(/C=C/C#N)cc2C)c1C(=O)NCCc1ccccn1 | - | MT4 CMV-EGFP | IIIB | - | EC50 | - | 0.00282 µM |